Article PMC4942678
Some compounds may have been tested in ways that are not shown here.

Target: TacT (T8) (Salmonella enterica, UniProt A0A0F6B8D8)
Details: labelled compound; acetyl donor; acceptor aminoacyl-tRNA extracted from S. Typhimurium 12023 delta-tacAT

Structure (SMILES): CC(=O)SCCNC(=O)CCNC(=O)[C@H](O)C(C)(C)COP(=O)(O)OP(=O)(O)OC[C@H]1O[C@@H](n2cnc3c(N)ncnc32)[C@H](O)[C@@H]1OP(=O)(O)O
- [14C]acetyl transfer to tRNA, acid-urea PAGE autoradiography: purified TacT, but not TacT^Y140F, acetylated free tRNA molecules extracted from ΔtacAT Salmonella
